Measured values from several laboratories, pooled; numbers as filed in NIAID ChemDB.

Common to all: growth or infection tests; species: Staphylococcus aureus; endpoint: MIC

Lines come from different laboratories, so protocols vary.

| compound | strain | value |
|---|---|---|
| O=C(C(O)Cn1cccn1)N1CC=C(c2c(F)cc(N3C[C@H](COc4ccon4)OC3=O)cc2F)CC1 | 078 (oxford) | 0.5 µg/mL |
| CC[C@H]1OC(=O)[C@@](C)(F)C(=O)[C@H](C)[C@@H](O[C@@H]2O[C@H](C)C[C@H](N(C)C)[C@H]2O)[C@@]2(C)C[C@@H](C)C(=NC(C)=O)[C@H](C)[C@@H](OC/C(=N\OCc3ccc(C(N)=O)s3)CO2)[C@]1(C)O | 33591 (erythromycin methicillin-resistant) | >64 µg/mL |
| CCC(=O)NC[C@H]1CN(c2ccc3c(c2)-n2cccc2COC3)C(=O)O1 | ATCC 33591 (MRSA) | 4 µg/mL |
| CC(=O)NCC(=O)N1CCC(Oc2ccc(N3C[C@H](CNC(C)=O)OC3=O)cc2F)CC1 | OC4172 methicillin-susceptible | 16 µg/mL |
| CC(C)OC(=S)NC[C@H]1CN(c2ccc3c(c2)-n2cccc2COC3)C(=O)O1 | ATCC 29213 (MSSA) | >32 µg/mL |
| Cn1cc(C(=O)O)c(=O)c2cc3cc(F)c(N4CCCCCCC4)cc3nc21 | IP8203 (quinolone-sensitive) | 1 µg/mL |
| CCCCCCCCCCCC[N+](C)(C)COC1CCCC1 | ATCC 6538 | 1.44 µM |
| O=C(CC(F)(F)F)NC[C@H]1CN(c2ccc3c(c2)-n2cccc2COC3)C(=O)O1 | ATCC 29213 (MSSA) | 8 µg/mL |
| CCCCCCCCCCCC[N+](C)(C)COC(C)CCC | ATCC 6538 | 7.14 µM |
| CC[C@H]1OC(=O)[C@H](C)C(=O)[C@H](C)[C@@H](O[C@@H]2O[C@H](C)C[C@H](N(C)C)[C@H]2O)[C@@]2(C)C[C@@H](C)C(=NC(C)=O)[C@H](C)[C@@H](OC/C(=N\OCc3ccc(-c4cccc(N)n4)s3)CO2)[C@]1(C)O | 33591 (erythromycin methicillin-resistant) | 16 µg/mL |
| C=C1COC2[C@@H](C)C(=NC(C)=O)[C@H](C)C[C@@](C)(OC1)[C@H](O[C@@H]1O[C@H](C)C[C@H](N(C)C)[C@H]1O)[C@@H](C)C(=O)[C@@H](C)C(=O)O[C@H](CC)[C@@]2(C)O | 33591 (erythromycin methicillin-resistant) | >64 µg/mL |
| COCCNc1cc2c(cc1F)c(=O)c(C(=O)O)cn2C1CC1 | ATCC 6538P | 6.25 µg/mL |
| CC[C@H]1OC(=O)[C@H](C)[C@@H](O[C@H]2C[C@@](C)(OC)[C@@H](O)[C@H](C)O2)[C@H](C)[C@@H](O[C@H]2O[C@@H](C)C[C@@H](N(C)C)[C@@H]2O)[C@](C)(O)C[C@@H](C)C(=O)[C@H](C)[C@@H](O)[C@]1(C)O | 27660 (erythromycin A -resistant) | >64 µg/mL |
| CC(=O)NC[C@H]1CN(c2ccc(OC3CCN(C(C)=O)CC3)nc2)C(=O)O1 | OC2878 methicillin-resistant | >128 µg/mL |
| COC(=O)N1CCN(c2ccc(N3C[C@H](COc4ccon4)OC3=O)cc2F)CC1 | 122 (novobiocin-resistant) | 4 µg/mL |
| CCCCCCCCCCCC[N+](C)(C)COC1CCCCC1 | ATCC33592 | 2.76 µM |
| CC[C@H]1OC(=O)[C@@](C)(F)C(=O)[C@H](C)[C@@H](O[C@@H]2O[C@H](C)C[C@H](N(C)C)[C@H]2O)[C@@]2(C)C[C@@H](C)C(=NC(C)=O)[C@H](C)[C@@H](OC/C(=N\OCc3ccc(N)nc3)CO2)[C@]1(C)O | 27660 (erythromycin A -resistant) | <0.06 µg/mL |
| CCC(=S)NC[C@H]1CN(c2ccc3c(c2)-n2cccc2COC3)C(=O)O1 | ATCC 49951 (SMITH) | 4 µg/mL |
| NCCCCNc1cc2c(cc1F)c(=O)c(C(=O)O)cn2C1CC1 | ATCC 6538P | >100 µg/mL |
| O=C(CO)N1CC=C(c2c(F)cc(N3C[C@H](COc4ccon4)OC3=O)cc2F)CC1 | 122 (novobiocin-resistant) | 1 µg/mL |
| Cc1c(NC(C)C)c(F)cc2c(=O)c(C(=O)O)cn(-c3cc(N)c(F)cc3F)c12 | 209P | 0.008 µg/mL |
| O=C(CO)N[C@H]1CCN(c2ccc(N3C[C@H](COc4ccon4)OC3=O)cc2F)C1 | 078 (oxford) | 4 µg/mL |
| NCCCCCNc1cc2c(cc1F)c(=O)c(C(=O)O)cn2-c1ccc(F)cc1F | ATCC 6538P | 3.1 µg/mL |
| O=C1O[C@@H](COc2ccon2)CN1c1ccc(-n2ccnn2)c(F)c1 | 078 (oxford) | 4 µg/mL |
| CCNc1c(F)cc2c(=O)c(C(=O)O)cn(-c3cc(N)c(F)cc3F)c2c1C | SMITH | <0.004 µg/mL |
| O=C(O)c1cn(C2CC2)c2cc(NCCCCCCO)c(F)cc2c1=O | ATCC 6538P | >100 µg/mL |
| CC[C@H]1OC(=O)[C@H](C)C(=O)[C@H](C)[C@@H](O[C@@H]2O[C@H](C)C[C@H](N(C)C)[C@H]2O)[C@@]2(C)C[C@@H](C)C(=NC(C)=O)[C@H](C)[C@@H](OC/C(=N/OCc3ccc(-c4cccc(N)n4)s3)CO2)[C@]1(C)O | 33591 (erythromycin methicillin-resistant) | >64 µg/mL |
| CC1=NN=C(OC[C@H]2CN(c3ccc(C4=CCOCC4)c(F)c3)C(=O)O2)C1 | 078 (oxford) | 4 µg/mL |
| CCCCCCCCCCCC[N+](C)(C)COCC(CC)CCC | ATCC33592 | 12.8 µM |
| Nc1ccc(OC[C@H]2CN(c3ccc(C4=CCOCC4)c(F)c3)C(=O)O2)cn1 | 004 (methicillin quinolone-resistant) | 1 µg/mL |
| CC(=O)NC[C@H]1CN(c2ccc(OC3CCN(C(=O)c4ccno4)CC3)c(F)c2)C(=O)O1 | OC4172 methicillin-susceptible | 16 µg/mL |
| Cn1cc(C(=O)O)c(=O)c2cc3cc(F)c(N4CCN(Cc5ccc(F)cc5)CC4)cc3nc21 | LF11C128 (quinolone-resistant) | 1 µg/mL |
| CS(=O)(=O)N[C@H]1CCN(c2ccc(N3C[C@H](COc4ccon4)OC3=O)cc2F)C1 | 078 (oxford) | 2 µg/mL |
| Cc1c(NCCCO)c(F)cc2c(=O)c(C(=O)O)cn(-c3cc(N)c(F)cc3F)c12 | SMITH | 0.008 µg/mL |
| CC[C@H]1OC(=O)[C@H](C)C(=O)[C@H](C)[C@@H](O[C@@H]2O[C@H](C)C[C@H](N(C)C)[C@H]2O)[C@@]2(C)C[C@@H](C)C(=NC(C)=O)[C@H](C)C(OC/C=C/CO2)[C@]1(C)O | 33591 (erythromycin methicillin-resistant) | >64 µg/mL |
| CC(=O)NC[C@H]1CN(c2ccc3c(c2)-n2cccc2COC3)C(=O)O1 | ATCC 49951 (SMITH) | 2 µg/mL |
| COCC(=O)N1CCC(Oc2ccc(N3C[C@H](CNC(C)=O)OC3=O)cn2)CC1 | OC4172 methicillin-susceptible | >64 µg/mL |
| N#Cc1ccn(-c2ccc(N3C[C@H](COc4ccon4)OC3=O)cc2F)c1 | 122 (novobiocin-resistant) | 0.5 µg/mL |
| CC(N)CCCCNc1cc2c(cc1F)c(=O)c(C(=O)O)cn2C1CC1 | ATCC 6538P | >100 µg/mL |
| O=C(C(O)Sc1ccccn1)N1CC=C(c2c(F)cc(N3C[C@H](COc4ccon4)OC3=O)cc2F)CC1 | 004 (methicillin quinolone-resistant) | 1 µg/mL |
| CCCCCCCCCCCC[N+](C)(C)COCCC(C)C | ATCC 6538 | 3.57 µM |
| CC(O)C(=O)N1CC=C(c2ccc(N3C[C@H](COc4cnsn4)OC3=O)cc2F)CC1 | 078 (oxford) | 0.25 µg/mL |
| CC[C@H]1OC(=O)[C@@](C)(F)C(=O)[C@H](C)[C@@H](O[C@@H]2O[C@H](C)C[C@H](N(C)C)[C@H]2O)[C@@]2(C)C[C@@H](C)C(=NC(C)=O)[C@H](C)[C@@H](OC/C(=N\OCc3ccc(-c4csnn4)nc3)CO2)[C@]1(C)O | 29213 (erythromycin A-susceptible) | 0.25 µg/mL |
| O=C1O[C@@H](COc2ccncn2)CN1c1ccc(C2=CCOCC2)c(F)c1 | 004 (methicillin quinolone-resistant) | 1 µg/mL |
| NCCSc1cc2c(cc1F)c(=O)c(C(=O)O)cn2-c1ccc(F)cc1F | ATCC 6538P | 0.39 µg/mL |
| CC(=O)NC[C@H]1CN(c2ccc(OC3CCN(C(=O)CNC(=O)OCc4ccccc4)CC3)c(F)c2)C(=O)O1 | OC4172 methicillin-susceptible | 32 µg/mL |
| O=C1O[C@@H](COc2cnccn2)CN1c1ccc(C2=CCOCC2)c(F)c1 | 004 (methicillin quinolone-resistant) | 0.5 µg/mL |